Source: paper PMC9960243, “Cytotoxic and Antileishmanial Effects of the Monoterpene β-Ocimene” (Pharmaceuticals, 2023)

How the values were obtained:
[1] = test system: Leishmania (Leishmania) amazonensis axenic amastigotes; format: cell-based; details: SI = CC50 Raw 264.7/EC50
Procedure: (§1) Strains of Leishmania (Leishmania) amazonensis (IFLA/BR/67/PH8) (promastigote form) were cultivated in Schneider’s insect medium (supplemented with 10% FBS, and 1% antibiotic solution), at 26 °C, and at pH 7, in a biological oxygen demand (BOD) incubator. To transform the promastigote forms into axenic amastigotes, the temperature was increased to 32 °C and the pH of the medium was adjusted to 5.5 [14].
(§2) Promastigote and axenic amastigote growth inhibition was tested as previously described by DIAS et al.. In a 96-well plate, parasites were seeded at 10^6 parasites per well in 100 μL of supplemented Schneider medium. The parasites were treated with differing concentrations of β-ocimene (1.56–12.5 μM), and reference drugs, meglumine antimoniate (500–40,000 μM) and amphotericin B (0.062–0.5 μM). The plates were incubated in a BOD incubator at 26 °C for 72 h. Afterwards, 10 µL of MTT (5 mg/mL) was added to each well, and the plate was incubated again for 4 h, when 50 µL of 10% SDS was added. Absorbances were then measured using an ELISA plate reader (BioSystems model ELx800, Curitiba, PR, Brazil) at 540 nm. The negative control consisted of Schneider medium with 0.5% DMSO and was considered as 0% inhibition.

[2] = test system: Leishmania (Leishmania) amazonensis promastigotes; format: cell-based; details: SI = CC50 Raw 264.7/IC50
Procedure: as §1, §2

C[C@@H]1[C@H](O)[C@@H](C)/C=C/C=C/C=C/C=C/C=C/C=C/C=C/[C@H](O[C@@H]2O[C@H](C)[C@@H](O)[C@H](N)[C@@H]2O)C[C@@H]2O[C@](O)(C[C@@H](O)C[C@@H](O)[C@H](O)CC[C@@H](O)C[C@@H](O)CC(=O)O[C@H]1C)C[C@H](O)[C@H]2C(=O)O [Amphotericin B, reference compound]
Axenic Amastigotes SI [1]: 0.76
Promastigotes SI [2]: 1.11

C=C/C(C)=C/CC=C(C)C [β-ocimene, beta-3,7-dimethyl-1,3,6-octatriene]
Axenic Amastigotes SI [1]: 102.23
Promastigotes SI [2]: 41.18

Meglumine antimoniate [reference compound]
Axenic Amastigotes SI [1]: 9.16
Promastigotes SI [2]: 0.73
